From PMC9059125 (Journal of Medicinal Chemistry, 2022)

How the values were obtained:
[1] = USP-simulated gastric fluid (SGF) peptide stability assay; conditions: USP-SGF pH 1.2, pepsin 1200–2400 U/mg (3.2 mg/mL), 37 °C, 50 μM peptide, sampling up to 24 h
[2] = USP-simulated intestinal fluid (SIF) peptide stability assay; conditions: USP-SIF pH 6.8, pancreatin 1× USP (10 mg/mL), 37 °C, 50 μM peptide, sampling up to 24 h

For `CC[C@H](C)[C@@H]1NC(=O)[C@H](CCC(=O)O)NC(=O)[C@@H]2CCCN2C(=O)[C@H](Cc2cnc[nH]2)NC(=O)[C@H](CC(=O)O)NC(=O)[C@H](Cc2ccc(O)cc2)NC(=O)[C@H](CC(N)=O)NC(=O)[C@@H]2CSSC[C@@H]3NC(=O)CNC(=O)CNC(=O)CNC(=O)[C@H](C)NC(=O)[C@H](C)NC(=O)CNC(=O)CNC(=O)[C@H](CSSC[C@H](NC3=O)C(=O)N[C@@H](CO)C(=O)N[C@@H](CC(=O)O)C(=O)N3CCC[C@H]3C(=O)N[C@@H](CCCNC(=N)N)C(=O)N2)NC1=O`, the “t1/2 SGF” value [1] was greater than 24 h and the “t1/2 SIF” value [2] was 1.5 ± 0.1 h.
